A mixed list of measured activities; the numbers were collected in NIAID ChemDB.

All rows: tests on isolated targets; agent: Pneumocystis carinii; target: Dihydrofolate reductase; measure: IC50

a–b is a range or a potency band.

compound,result
CN(Cc1cc2c(N)nc(N)nc2o1)c1ccc(C(=O)NC(CCCC(O)O)C(O)O)cc1,0.035 µM
COc1cc(C2C=c3c(c4c([nH]c3=O)=NC(=N)N=C4N)C2)cc(OC)c1OC,3.1 µM
Nc1nc(N)c2c(n1)Cc1ccccc1-2,82 µM
COc1ccc2c(c1)CCN2Cc1cnc2nc(N)nc(N)c2c1C,0.29 µM
Nc1nc(N)c2c(ccc3c2ccn3Cc2ccc(Cl)cc2Cl)n1,0.006 µM
CN(Cc1cnc2nc(N)nc(N)c2n1)c1ccc(C(=O)N[C@@H](CCC(=O)O)C(=O)O)cc1Br,0.00109 µM
CCc1nc(N)nc(N)c1-c1ccc(Cl)c(NN=NC(CCOC(C)=O)Cc2ccccc2)c1,0.17 µM
Nc1nc(N)c2nc(CO)cnc2n1,>51 µM
Nc1nc(N)c2c(ccc3cc(Cl)ccc32)n1,3.5–4.1 µM
CN(Cc1cnc2nc(N)nc(N)c2n1)c1ccccc1,10 µM
CN(Cc1cnc2nc(N)nc(N)c2n1)c1c(Cl)cc(C(=O)N[C@@H](CCC(=O)O)C(=O)O)cc1Cl,0.000035 µM
COc1cc(C2Cc3c(c4c(N)nc(N)nc4[nH]c3=O)C2)cc(OC)c1OC,94.5 µM
COc1cc(CN2Cc3cnc4nc(N)nc(N)c4c3C2)cc(OC)c1OC,12.6 µM
Nc1nc(N)c2nc(CNc3ccccc3)cnc2n1,>1.9 µM
Nc1nc(N)c2c(n1)CCCc1ccc(Cl)cc1-2,9.6 µM
Cc1cnc2nc(N)nc(N)c2n1,>20 µM
CN(Cc1cnc2nc(N)nc(N)c2n1)c1ccc(C(=O)N[C@@H](CCC(=O)O)C(=O)O)c2ccccc12,0.00019 µM
CN(Cc1cnc2nc(N)nc(N)c2n1)c1ccc(C(=O)N[C@H](CCC(=O)O)C(=O)O)cc1I,0.000104 µM
Nc1nc(N)c2cc(Cl)ccc2n1,0.28–3.6 µM
Nc1nc(N)c2c(n1)CCc1cc(Cl)c(Cl)cc1-2,20 µM
CN(Cc1cnc2nc(N)nc(N)c2n1)c1c(Cl)cc(C(=O)N[C@@H](CCC(=O)O)C(=O)O)cc1Br,0.00021 µM
Cc1c(CNc2ccc(C(=O)NC(CC(=O)O)CC(=O)O)cc2)ccc2nc(N)nc(N)c12,0.28–3.6 µM
COc1cc(CN2Cc3c(c4c(N)nc(N)nc4[nH]c3=O)C2)cc(OC)c1OC,94.5 µM

For reference, 2 entries again:

compound,result
Nc1nc(N)c2cc(Cl)ccc2n1,0.28–3.6 µM
COc1cc(C2Cc3c(c4c(N)nc(N)nc4[nH]c3=O)C2)cc(OC)c1OC,94.5 µM

ICn is the concentration giving n% inhibition. Conditions beyond the fields shown may differ between rows.